The entries are a selection whose mix differs from that of the whole data set. Results filed as inconclusive are left out. The source made the active and inactive calls. No stated cut-off is given here; in the data, active means inhibition above about 54%; inconclusive means no clear call, values can overlap the other calls; inactive means below that.

This test in a line: prion 5' UTR mRNA inhibition, cherry-pick retest (AID 504592). The note with it: cell-based prion protein 5' UTR reporter, plate reader; at 2.5 µM; active compounds read high.
What is called inhibition is the drop in the measured response relative to a control, in per cent. Turning to `O=P(Nc1ccccn1)(c1cccc2ccccc12)c1cccc2ccccc12`, the inhibition is inactive: -14.5%.
In the case of `CN(C(=O)Cc1ccc(Cl)c(Cl)c1)[C@H]1CCCC[C@@H]1N1CCCC1`, the inhibition was inactive: -18.7%.
